Measured values from several laboratories, pooled; numbers as filed in NIAID ChemDB.

Shared fields: tests in culture; species: Mycobacterium avium complex; endpoint: MIC

Lines come from different laboratories, so protocols vary.

smiles | strain or isolate | value
CC1(C)S[C@@H]2[C@H](NC(=O)[C@H](C(=O)[O-])c3ccsc3)C(=O)N2[C@H]1C(=O)[O-].[Na+].[Na+] | CIPT 140310002 | 50 µg/mL
CN(CCO)c1ccc2c(=O)n3c(nc2c1)C(=O)c1cc(Cl)ccc1-3 | 19075 | >25 µg/mL
CC[C@H]1OC(=O)[C@H](C)[C@@H](OC2C[C@@](C)(OC)[C@@H](O)[C@H](C)O2)[C@H](C)[C@@H](O[C@@H]2O[C@H](C)C[C@H](N(C)C)[C@H]2O)C(C)(O)C[C@@H](C)/C(=N\OCCc2cccs2)[C@H](C)[C@@H](O)[C@]1(C)O | 20096 | 25 µg/mL
NC(=S)c1ccnc(SCc2cccc(F)c2)c1 | MY330/88 | 31 µM
CN[C@@H]1[C@@H](O)C(O[C@@H]2[C@@H](O)[C@H](OC3O[C@H](CN)[C@@H](O)[C@H](O)[C@H]3O)[C@@H](N)C[C@H]2NC(=O)[C@@H](O)CN)OC[C@]1(C)O | T11 | 12.5 µg/mL
O=C1c2cc(Cl)ccc2-n2c1nc1cc(F)ccc1c2=O | 19075 | 0.06 µg/mL
Cc1c(CNc2ccc3ncccc3c2)cnc2nc(N)nc(N)c12 | NJ168 | ≤0.13 µg/mL
CC(C)N=C(N)/N=C(\N)NOCCCOc1cc(Cl)c(Cl)cc1Cl | W7547 | 32 µg/mL
CCc1nc(N)nc(N)c1-c1ccc(Cl)cc1 | 101 | 32 µg/mL
CCO/N=C1\[C@H](C)CC(C)(O)[C@H](O[C@@H]2O[C@H](C)C[C@H](N(C)C)[C@H]2O)[C@@H](C)[C@H](OC2C[C@@](C)(OC)[C@@H](O)[C@H](C)O2)[C@@H](C)C(=O)O[C@H](CC)[C@@](C)(O)[C@H](O)[C@H]1C | 20096 | >50 µg/mL
COc1ccc(OC)c(SCc2cnc3nc(N)nc(N)c3c2C)c1 | NJ3404 | ≤0.13 µg/mL
CC1(C)N=C(N)N=C(N)N1OCCCOc1cc(Cl)c(Cl)cc1Cl | DW15 | 8 µg/mL
CC[C@H]1OC(=O)[C@H](C)[C@@H](O[C@H]2C[C@@](C)(OC)[C@@H](O)[C@H](C)O2)[C@H](C)[C@@H](O[C@@H]2O[C@H](C)C[C@H](N(C)C)[C@H]2O)[C@](C)(OC)C[C@@H](C)C(=O)[C@H](C)[C@@H](O)[C@]1(C)O | Isolate 90-08027 | 2 µg/mL
CCc1c(CNc2cc(C)ccc2OC)cnc2nc(N)nc(N)c12 | NJ3404 | ≤0.13 µg/mL
CCCCO/N=C1\[C@H](C)CC(C)(O)[C@H](O[C@@H]2O[C@H](C)C[C@H](N(C)C)[C@H]2O)[C@@H](C)[C@H](OC2C[C@@](C)(OC)[C@@H](O)[C@H](C)O2)[C@@H](C)C(=O)O[C@H](CC)[C@@](C)(O)[C@H](O)[C@H]1C | 20096 | >50 µg/mL
C[C@@H]1CN(c2c(F)c(N)c3c(=O)c(C(=O)O)cn(C4CC4)c3c2F)C[C@H](C)N1 | ATCC 15769 | 0.5 µg/mL
CC[C@H]1OC(=O)[C@H](C)[C@@H](O[C@H]2C[C@@](C)(OC)[C@@H](O)[C@H](C)O2)[C@H](C)[C@@H](O[C@@H]2O[C@H](C)C[C@H](N(C)C)[C@H]2O)[C@](C)(OC)C[C@@H](C)C(=O)[C@H](C)[C@@H](O)[C@]1(C)O | 20092 | >50 µg/mL
O=C1c2ccc(N3CCNCC3)cc2-n2c1nc1ccccc1c2=O | 19075 | >25 µg/mL
CC[C@H]1OC(=O)[C@H](C)[C@@H](OC2C[C@@](C)(OC)[C@@H](O)[C@H](C)O2)[C@H](C)[C@@H](O[C@@H]2O[C@H](C)C[C@H](N(C)C)[C@H]2O)C(C)(O)C[C@@H](C)/C(=N\OCCCCOc2ccccc2)[C@H](C)[C@@H](O)[C@]1(C)O | 20039 | 1.56 µg/mL
O=C1c2cc(Cl)ccc2-n2c1nc1ncccc1c2=O | 19075 | 5 µg/mL
NC(=S)c1ccnc(SCc2ccc(Cl)cc2)c1 | MY330/88 | 16 µM
O=C1c2cc(Cl)ccc2-n2c1nc1cc(N3CCCCC3)ccc1c2=O | 19075 | 0.5 µg/mL
Cc1c(CNc2ccc3ccc4cccc5ccc2c3c45)cnc2nc(N)nc(N)c12 | NJ211 | ≤0.13 µg/mL
O=C1c2cc(I)ccc2-n2c1nc1ncccc1c2=O | 19075 | 5 µg/mL
NNC(=O)c1ccncc1 | 13039 | 0.8–1.25 µg/mL
CCNC(=O)[C@@H](NC(=O)Cc1ccccc1)[C@@H]1N[C@@H](C(=O)NCCNC(=O)[C@@H]2N[C@@H]([C@H](NC(=O)Cc3ccccc3)C(=O)NCC)SC2(C)C)C(C)(C)S1 | CIPT 140310012 | 25 µg/mL
Cc1c(CNc2ccc(Cl)c3ccccc23)cnc2nc(N)nc(N)c12 | NJ211 | ≤0.13 µg/mL
CCCCCCCCCCCCCCCCO/N=C1\[C@H](C)CC(C)(O)[C@H](O[C@@H]2O[C@H](C)C[C@H](N(C)C)[C@H]2O)[C@@H](C)[C@H](OC2C[C@@](C)(OC)[C@@H](O)[C@H](C)O2)[C@@H](C)C(=O)O[C@H](CC)[C@@](C)(O)[C@H](O)[C@H]1C | 20092 | >50 µg/mL
CC1(C)S[C@@H]2[C@H](NC(=O)C(C(=O)O)c3ccccc3)C(=O)N2[C@H]1C(=O)O | CIPT 140310005 | 25 µg/mL
N#Cc1ccnc(SCc2ccccc2)c1 | MY330/88 | 125 µM
Cc1onc(-c2ccccc2Cl)c1C(=O)N[C@@H]1C(=O)N2[C@@H]1SC(C)(C)[C@@H]2C(=O)O | CIPT 140310005 | 25 µg/mL
CC[C@H]1OC(=O)[C@H](C)[C@@H](OC2C[C@@](C)(OC)[C@@H](O)[C@H](C)O2)[C@H](C)[C@@H](O[C@@H]2O[C@H](C)C[C@H](N(C)C)[C@H]2O)C(C)(O)C[C@@H](C)/C(=N\OCc2ccccc2)[C@H](C)[C@@H](O)[C@]1(C)O | 20096 | >50 µg/mL
Cc1ccc(CSc2cc(C#N)ccn2)cc1 | MY330/88 | >1000 µM
CCOC(=O)c1ccc2c(c1)C(=O)c1nc3ncccc3c(=O)n1-2 | 101 | 5 µg/mL
Cc1c(CNc2ccc3c4c(cccc24)-c2ccccc2-3)cnc2nc(N)nc(N)c12 | NJ211 | ≤0.13 µg/mL
CCCCCCCCO/N=C1\[C@H](C)CC(C)(O)[C@H](O[C@@H]2O[C@H](C)C[C@H](N(C)C)[C@H]2O)[C@@H](C)[C@H](OC2C[C@@](C)(OC)[C@@H](O)[C@H](C)O2)[C@@H](C)C(=O)O[C@H](CC)[C@@](C)(O)[C@H](O)[C@H]1C | 20039 | 3.13 µg/mL
Cc1c(CNc2cnc3ccccc3c2)cnc2nc(N)nc(N)c12 | NJ3404 | ≤0.13 µg/mL
NC(=S)c1ccnc(SCc2ccccc2F)c1 | MY330/88 | 62 µM
COc1ccc(NCc2cnc3nc(N)nc(N)c3c2C)cc1OC | NJ3404 | ≤0.13 µg/mL
O=C1c2cc(F)ccc2-n2c1nc1ccc(F)cc1c2=O | 19075 | 0.13 µg/mL

Repeating the first 5 entries:

| smiles | strain or isolate | value |
|---|---|---|
| CC1(C)S[C@@H]2[C@H](NC(=O)[C@H](C(=O)[O-])c3ccsc3)C(=O)N2[C@H]1C(=O)[O-].[Na+].[Na+] | CIPT 140310002 | 50 µg/mL |
| CN(CCO)c1ccc2c(=O)n3c(nc2c1)C(=O)c1cc(Cl)ccc1-3 | 19075 | >25 µg/mL |
| CC[C@H]1OC(=O)[C@H](C)[C@@H](OC2C[C@@](C)(OC)[C@@H](O)[C@H](C)O2)[C@H](C)[C@@H](O[C@@H]2O[C@H](C)C[C@H](N(C)C)[C@H]2O)C(C)(O)C[C@@H](C)/C(=N\OCCc2cccs2)[C@H](C)[C@@H](O)[C@]1(C)O | 20096 | 25 µg/mL |
| NC(=S)c1ccnc(SCc2cccc(F)c2)c1 | MY330/88 | 31 µM |
| CN[C@@H]1[C@@H](O)C(O[C@@H]2[C@@H](O)[C@H](OC3O[C@H](CN)[C@@H](O)[C@H](O)[C@H]3O)[C@@H](N)C[C@H]2NC(=O)[C@@H](O)CN)OC[C@]1(C)O | T11 | 12.5 µg/mL |

Two numbers with a dash give a range or band.